{"source": "paper PMC9415646", "about": "“Improving Aqueous Solubility and In Vitro Pharmacokinetic Properties of the 3-Nitroimidazo[1,2-a]pyridine Antileishmanial Pharmacophore” (Pharmaceuticals, 2022)", "test_system": "T. b. brucei BSF trypomastigotes", "test": "Antitrypanosomal evaluation on T. b. brucei BSF trypomastigotes (Alamar Blue)", "format": "cell-based, Trypanosoma brucei brucei", "conditions": "SI = CC50 HepG2/EC50 T. brucei brucei", "experimental": "The effects of the tested compounds on the growth of T. b. brucei were assessed by Alamar Blue® assay described by Räz et al. T. b. brucei AnTat 1.9 (IMTA, Antwerpen, Belgium) was cultured in MEM with Earle’s salts, supplemented according to the protocol of Baltz et al. with the following modifications: 0.5 mM mercaptoethanol (Sigma Aldrich®, France), 1.5 mM L-cysteine (Sigma Aldrich®), 0.05 mM bathocuproïne sulfate (Sigma Aldrich®) and 20% heat-inactivated horse serum (Gibco®, France), at 37 °C and 5% CO2. They were incubated at an average density of 2000 parasites/100 µL in sterile 96-wells plates (Fisher®, France) with various concentrations of compounds dissolved in DMSO, in duplicate. Appropriate controls suramin, treated with sterile water, and fexinidazole, treated with DMSO on sterile water (reference drugs purchased from Sigma Aldrich, France and Fluorochem, UK) were added to each set of experiments. […] The plates were read in a ENSPIRE microplate reader (PerkinElmer, Waltham, MA, USA) using an excitation wavelength of 530 nm and an emission wavelength of 590 nm. […] EC50 were calculated by nonlinear regression analysis processed on dose-response curves, using GraphPad Prism software (USA). EC50 values were calculated from three separate experiments.", "data": [{"smiles": "Cc1ccc(C(=O)Nc2ccc(S(=O)(=O)O)c3cc(S(=O)(=O)O)cc(S(=O)(=O)O)c23)cc1NC(=O)c1cccc(NC(=O)Nc2cccc(C(=O)Nc3cc(C(=O)Nc4ccc(S(=O)(=O)O)c5cc(S(=O)(=O)O)cc(S(=O)(=O)O)c45)ccc3C)c2)c1", "note": "[Suramin, reference compound]", "values": [{"measurement": "SI T. b. brucei", "result": ">1250"}]}]}
